Assay results from publication PMC11188199, “Development and validation of a generic methyltransferase enzymatic assay based on an SAH riboswitch” (SLAS discovery : advancing life sciences R & D, 2024).

test system: AptaFluor detection reagents; test: Tolerance of substrates and reagents in the AptaFluor SAH assay; details: 10 nM SAH

| Compound | Tolerance (maximum concentration with < 10% change in assay signal) |
| --- | --- |
| [Cl][Mn][Cl] [MnCl2] | 2 mM |
| CN(C)C=O [DMF] | 0.78% |
| C[S+](C)[O-] [DMSO] | 3% |
| [Cl-].[Cl-].[Mg+2] [MgCl2] | 250 mM |
| [Ca+2].[Cl-].[Cl-] [CaCl2] | 10 mM |
| OCC(O)CO [Glycerol] | 12.50% |
| NP40 | 0.60% |
| O[C@@H](CS)[C@@H](O)CS [DTT] | 1% |

test system: AptaFluor detection reagents; test: Interference dose response assay in mock reactions lacking nsp14; details: 90 nM SAM and 10 nM SAH, up to 100 μM

| Compound | interference with AptaFluor signal in dose response mode |
| --- | --- |
| COc1ncc(-c2ccc3c(Nc4cc(Oc5cc(F)cc(F)c5)cc(C(=O)O)c4)c(S(=O)(=O)NC4CC4)cnc3c2)c(OC)n1 [GSK-2837808A] | dose dependent decrease in signal |
| O=C1C(Cl)=C(NCCN2CCOCC2)C(=O)c2ncccc21 [NSC-663284] | no effect |
| CC1(C)C(=O)N=C2C1=C(O)C(=O)c1ccccc12 [BVT-948] | no effect |
